The series is filed under the species Mus musculus. Kind of series: Acute toxicity in Mus musculus (mouse). In kind it is organism-based. The settings on record: in vivo.

This passage reports LD50 results from ChEMBL document CHEMBL3044645, “Synthesis and Pesticidal Activities of N-Phosphinoyl Heterocycles” (J Pestic Sci, 1997).

One may read the LD50 as the dose expected to kill half of the subjects tested. Higher therefore signals a less toxic substance.

With `CCCSP(=O)(Nc1ncc(C(F)(F)F)cc1Cl)OCC` (configuration not stated), the LD50 is under 30 mg/kg.
For `CCOP(=O)(SC(C)CC)N1CC(=O)N(C)C1=O` (configuration not stated), the LD50 was 39 mg/kg.
